# Fitness effects across NS2B and the NS3 protease domain of Zika virus

Source: Ni et al. 2025 (doi:10.1038/s41467-025-63602-z), supplementary data.

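Pools of virus carrying all single amino acid changes were selected for growth in Huh-7.5 cells. Deep sequencing gave the change in frequency of each mutant relative to wild type, averaged over three replicate libraries (two for positions 207-308).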

Chain scanned (Zika virus MR766; NS2B from position 2 to 131, then the start of NS3):
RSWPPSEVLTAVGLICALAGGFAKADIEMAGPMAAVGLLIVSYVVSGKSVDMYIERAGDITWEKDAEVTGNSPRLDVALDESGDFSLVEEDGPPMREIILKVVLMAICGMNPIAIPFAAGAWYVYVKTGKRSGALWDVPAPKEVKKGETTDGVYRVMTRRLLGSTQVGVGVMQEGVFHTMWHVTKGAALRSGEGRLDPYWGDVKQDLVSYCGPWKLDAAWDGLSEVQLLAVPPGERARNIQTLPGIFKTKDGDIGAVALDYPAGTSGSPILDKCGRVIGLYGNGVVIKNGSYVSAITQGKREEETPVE

The number is log2 of the effect relative to wild type; negative values mean reduced growth, higher values better tolerance.
Substitutions are written as wild-type residue, site number, new residue.
This list holds changes to tyrosine only.
The region was split into three libraries (1-103, 104-206, 207-308).
Position 1 still belongs to NS2A. In the paper, -1 or higher counts as tolerated.
Values above 0 are not proof of better growth: six high scorers were tested one by one, five grew less well than wild type and one about as well.

V153Y read 0.58. With R155Y the assay gave -5.85. For V156Y the result was -5.42. With M157Y the assay gave -1.29. With T158Y the assay gave -4.87. R159Y gave -4.70. With R160Y the assay gave -5.65.

With L161Y the assay gave -4.84. With L162Y the assay gave -2.48. With G163Y the assay gave -2.31. S164Y gave -3.25. For T165Y the result was -0.80. With Q166Y the assay gave -5.03. V167Y read -5.60.

With G168Y the assay gave -4.96. For V169Y the result was -5.05. G170Y gave -5.65. V171Y gave -5.00. M172Y gave -5.46. With Q173Y the assay gave -2.79. For E174Y the result was -3.78.

With G175Y the assay gave -4.39. V176Y read -4.35. With F177Y the assay gave -4.95. For H178Y the result was -5.08. With T179Y the assay gave -5.46. M180Y gave -4.54. With W181Y the assay gave -4.80.

H182Y gave -3.91. With V183Y the assay gave -4.84. T184Y read -5.70. K185Y gave -5.37. With G186Y the assay gave -4.55. For A187Y the result was -4.62. For A188Y the result was -5.15.

For L189Y the result was -3.58. R190Y gave -2.05. S191Y read -4.49. G192Y read -4.95. E193Y gave -2.41. G194Y gave -5.51. With R195Y the assay gave -5.48.

L196Y gave -4.65. D197Y gave -3.72. P198Y read -6.84. W200Y gave -5.25. With G201Y the assay gave -5.64. D202Y read -4.15. With V203Y the assay gave -6.35.

For K204Y the result was -7.20. For Q205Y the result was -6.45. D206Y gave -1.56. L207Y gave -7.02. With V208Y the assay gave -7.62. For S209Y the result was -5.80. C211Y gave -3.16.

Excerpt, the final 5 entries:

change	log2 growth effect
D206Y	-1.56
L207Y	-7.02
V208Y	-7.62
S209Y	-5.80
C211Y	-3.16